US9808527B2, “Methods and compositions for treating HIV infections” (priority 2006, dated 2017)

Key:
HIV-1LAI = assay: MTT assay, MT-2 cells exposed to HIV-1LAI (acute HIV-1 infection assay); format: cell-based; conditions: read-out: IC50 against HIV-1LAI, 100 TCID50 of HIV-1LAI, MTT assay on day 7
HIV-1 protease = HIV-1 protease (Human immunodeficiency virus type 1 group M subtype B, UniProt P04585, C555A/C583A/L521I/L551I/Q495K/V491I); conditions: read-out: Ki against HIV-1 protease; wild-type PR, pH 5.0

SMILES: CC(C)CN(C[C@@H](O)[C@H](CSc1ccccc1)NC(=O)O[C@@H]1C[C@@H]2CCO[C@@H]2C1)S(=O)(=O)c1ccc(CO)cc1
- IC50 (HIV-1LAI): 5 nM
- Ki (HIV-1 protease): 0.029 nM
